The source of these data is patent publication US7829578B1, “Aromatic ketones and uses thereof” (Oregon Health & Science University, priority 2005, dated 2010).

One data set relates to Murine splenic lymphocytes. The data set is described as follows: MSLCs-concanavalin A induced proliferation (blastogenesis) cytotoxicity assay, Alamar Blue fluorescence. The format is cell-based. As to conditions: Table 2; in vitro therapeutic index = ratio of MSLCs IC50 to D6 IC50. On the procedure: *Data are the average of at least 3 independent experiments, each performed in triplicate with the aid of a Precision 2000 robotic pipeting station. IC50 values were determined by the MSF assay. […] MSLCs=Murine splenic lymphocytes. Cytotoxicity was determined using a 24-hr MSLCs-concanavalin A induced proliferation assay using the Alamar Blue fluorescence method. IVTI=in vitro therapeutic index calculated from the ratio of IC50 values based on the cytotoxicity observed in the blastogenesis assay and the antimalarial potency against the D6 strain of P. falciparum. NT=not tested.
*Data are the average of at least 3 independent experiments, each performed in triplicate with the aid of a Precision 2000 robotic pipeting station. IC50 values were determined by the MSF assay (Smilkstein et al., AAC, 2004). MSLCs=Murine splenic lymphocytes. Cytotoxicity was determined using a 48-hr MSLCs-concanavalin A induced proliferation assay using the Alamar Blue fluorescence method. IVTI=in vitro therapeutic index calculated from the ratio of IC50 values of the cytotoxicity observed in the blastogenesis assay and antimalarial potency against the D6 strain of P. falciparum. NA=not applicable; ND=not determined.
Background: Resazurin is reduced to fluorescent resorufin, in cell work by metabolically active cells.
Consider `O=c1c2ccc(Cl)cc2[nH]c2cc(OCCCCCC(F)(F)F)ccc12` [compound 21], for which the IVTI is recorded as >416,000.
Same read-out and setting: next, `O=c1c2ccc(Cl)cc2[nH]c2cc(OCCCCCCCCCCC(F)(F)F)ccc12` [compound 30]: >100,000; `O=c1c2ccccc2[nH]c2ccc(O)cc12` [compound 5]: over 2.8; `O=c1c2ccc(Cl)cc2[nH]c2ccc(O)cc12` [compound 8]: 126.
On to `O=c1c2ccccc2[nH]c2cc(OCCCCCC(F)(F)F)ccc12` [compound 26], for which the IVTI is reported as >58,000.
Consider `O=c1c2ccccc2[nH]c2c(OCCCCCC(F)(F)F)cccc12` [compound 27], for which the IVTI is over 56.
Take `O=c1c2ccccc2[nH]c2ccc(OCCCCCC(F)(F)F)cc12` [compound 25]: the IVTI is over 694.
The same measure, in the same setting: next, `COc1ccc2nc3cc(Cl)ccc3c(N)c2c1` [compound 9]: 25; `CCN(CC)CCCC(C)Nc1ccnc2cc(Cl)ccc12` (racemic) [compound 36]: 500; `O=c1c2ccc(O)cc2[nH]c2cc(Cl)ccc12` [compound 14]: 6.4.
Still for that read-out and setting: the same measure for `CC1CCC2C(C)C(=O)OC3OC4(C)CCC1C32OO4` (stereo not drawn) [compound 39]: >38,000; for `O=c1c2ccccc2[nH]c2cc(O)ccc12` [compound 6]: over 12.5; for `O=c1c2ccc(Cl)cc2[nH]c2cc(OCCCCCCCC(F)(F)F)ccc12` [compound 28]: >100,000.
The same measure, in the same setting: the same measure for `Nc1c2ccc(Cl)cc2nc2cc(OCCCCCC(F)(F)F)ccc12` [compound 32]: 86; for `COc1ccc2c(=O)c3ccc(Cl)cc3[nH]c2c1` [compound 13]: over 329; for `Cn1c2cc(Cl)ccc2c(=O)c2ccc(OCCCCC(F)(F)F)cc21` [compound 31]: over 6.25.
Regarding `O=c1c2ccc(O)cc2oc2cc(OCCCCCC(F)(F)F)ccc12` [compound 11], the IVTI is on record as over 543.
Regarding `O=c1c2ccc(Cl)cc2[nH]c2cc(OCCCCC(F)(F)F)ccc12` [compound 18], the IVTI is recorded as >83,000.
The same measure, in the same setting: next, `O=c1c2ccc(Cl)cc2[nH]c2cc(OCCCC(F)(F)F)ccc12` [compound 17]: >25,000; `O=C1C=C(OCCCCCC(F)(F)F)C(=O)c2ccccc21` [compound 12]: 83; `O=C1C=C(OCCCCC(F)(F)F)C(=O)c2ccccc21` [compound 35]: 437.5.
On the same count and under the same terms, the same measure for `O=C1c2ccc(OCCCCCC(F)(F)F)cc2C(=O)c2ccc(O)cc21` [compound 15]: over 926; for `OC(c1cc(C(F)(F)F)nc2c(C(F)(F)F)cccc12)C1CCCCN1` (racemic) [compound 38]: 813.
Turning to `O=c1c2ccc(Cl)cc2[nH]c2ccc(OCCCCCBr)cc12` [compound 10], the IVTI is reported as 171.
On the same count and under the same terms, the same measure for `COc1ccc2[nH]c3cc(Cl)ccc3c(=O)c2c1` [compound 7]: over 556.
Same read-out and setting: next, `O=c1c2ccc(Cl)cc2oc2cc(OCCCCC(F)(F)F)ccc12` [compound 19]: over 1.6.
The same measure, in the same setting: the same measure for `O=c1c2ccc(Cl)cc2[nH]c2cc(OCCCCCCCCO)ccc12` [compound 29]: >11,000.
On to `O=c1c2ccc(OCCCCCC(F)(F)F)cc2[nH]c2cc([N+](=O)[O-])ccc12` [compound 33], for which the IVTI is >7,800.
In the case of `O=c1c2ccc(Cl)cc2[nH]c2cc(OCCCCC(F)(C(F)(F)F)C(F)(F)F)ccc12` [compound 24], the IVTI is recorded as >100,000.
In the case of `O=c1c2ccc(Cl)cc2[nH]c2ccc(OCCCCCC(F)(F)F)cc12` [compound 22], the IVTI is on record as >2,500.
The same measure, in the same setting: the same measure for `O=c1c2ccccc2[nH]c2cc(OCCCCC(F)(F)F)ccc12` [compound 20]: >50,000.
Still for that read-out and setting: the same measure for `C=CC1CN2CCC1CC2C(O)c1ccnc2ccc(OC)cc12` (stereo not drawn) [compound 37]: 2,091; for `O=c1c2ccc(Cl)cc2[nH]c2cc(OCCCCCCl)ccc12` [compound 16]: >2,000; for `O=c1c2ccc(Cl)cc2[nH]c2cc(OCCCCC(F)(F)C(F)(F)F)ccc12` [compound 23]: >100,000.

Staying with this data set, now noted: Table 3; in vitro therapeutic index = ratio of MSLCs IC50 to D6 IC50.
As to `COc1ccc2c(=O)c(CCCCCC(F)(F)F)c(C)[nH]c2c1` [compound 44], the IVTI result is “≈2,000”.
Still for that read-out and setting: next, `CCOC(=O)c1c[nH]c2cc(OCCCCCC(F)(F)F)ccc2c1=O` [compound 46]: >20,000.
Take `COc1ccc2c(=O)c(CCCCCCCCCCC(F)(F)F)c(C)[nH]c2c1` [compound 45]: the IVTI is reported as >100,000.
Still for that read-out and setting: the same measure for `CCOC(=O)c1c[nH]c2cc(OC)ccc2c1=O` [compound 41]: 56.8.
For `COc1ccc2c(=O)cc(C)[nH]c2c1` [compound 43], the IVTI was over 3.5.
